Measurements as given in PMC9477884 (Communications Biology, 2022).

Molecular target: the molecule itself

MKTAISLPDETFDRVSRRASELGMSRSEFFTKAAQRYLHELDAQLLTGQ (domain or fragment) [nMazE6, C-terminal deletion mutant of MazE6 (residue 1-49)] was tested, and the “stoichiometry N” value was 2.
